Laboratory results as given in publication PMC3444823.

Target: truncated HIV-1 gp120SC (residues 83-492, intact variable loops) (HIV-1 (clade B isolate))
Assay: ELISA

Fc-fusion protein of sCD4 (from UniProt P01730) (Fc fusion)
EC50: > 100 nM
